Measured data: PubChem BioAssay AID624099 (ICCB-Longwood, 2012)

Aim: 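Host factors E2 relies on to silence an HPV18 LCR reporter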 (primary screen)
Cells: human C33A cervical carcinoma cells (HPV-negative) stably expressing BPV1 E2 and an HPV18 LCR luciferase reporter
Reagent: siRNA pool against human genes, 40 nM
Timing: 72 h
Detection: 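Per-well luciferase luminescence, z-scored on each plate against the plate mean and SD with control wells left out, then averaged across three replicate plates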
Direction: mean z-score and z-score: higher = stronger reporter signal, weaker E2 silencing
Active means: 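Mean z ≥ 2 together with z ≥ 2 in two or more of the three replicates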
The whole screen tested about 21,000 reagents; below is a part drawn at random. Over the whole deposit, 497 (2.4%) got an active call. 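Higher z means weaker E2 silencing; only reporter increases were scored, and knock-downs that hurt cell survival may mask genuine repressor factors.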 Unmarked entries are inactive. Reagent sequences are not shown.

Depletion of CACNA2D3 resulted in: mean z-score -0.38; z-score, replicate A = 0.06; z-score, replicate B = -0.75; z-score, replicate C = -0.45.
Silencing of TRIM62 (tripartite motif containing 62) came out at: mean z-score -0.98; z-score, replicate A = -1.03; z-score, replicate B = -0.95; z-score, replicate C = -0.97.
Against MAPK10 (mitogen-activated protein kinase 10), the entry reads mean z-score 0.2; z-score, replicate A = 0.24; z-score, replicate B = 0.06; z-score, replicate C = 0.28.
For RRM2B, the values are mean z-score -0.06; z-score, replicate A = 0.15; z-score, replicate B = 0.07; z-score, replicate C = -0.39.
With knock-down of GNRHR (gonadotropin releasing hormone receptor), the record shows mean z-score -0.07; z-score, replicate A = -0.12; z-score, replicate B = -0.3; z-score, replicate C = 0.2.
Silencing of LINC01242 (long independently transcribed non-coding RNA 1242) gave: mean z-score 0.83; z-score, replicate A = 0.81; z-score, replicate B = 0.73; z-score, replicate C = 0.97.
Against CLSTN3 (calsyntenin 3), the entry reads mean z-score 0.23; z-score, replicate A = -0.18; z-score, replicate B = 0.71; z-score, replicate C = 0.16.
Knock-down of SEMG2 (semenogelin 2) gave: mean z-score 0.52; z-score, replicate A = 0.4; z-score, replicate B = 0.64; z-score, replicate C = 0.52.
SPMIP9 (sperm microtubule inner protein 9) showed mean z-score -1.06; z-score, replicate A = -1.06; z-score, replicate B = -0.88; z-score, replicate C = -1.25.
Depletion of ST7 (suppression of tumorigenicity 7) resulted in: mean z-score 0.46; z-score, replicate A = 0.57; z-score, replicate B = 0.38; z-score, replicate C = 0.42.
With knock-down of LOC387756 (retired record), the screen gave mean z-score -0.65; z-score, replicate A = -0.55; z-score, replicate B = -0.79; z-score, replicate C = -0.6.
Knock-down of KCTD10 (potassium channel tetramerization domain containing 10) came out at: mean z-score 0.81; z-score, replicate A = 0.56; z-score, replicate B = 0.65; z-score, replicate C = 1.22.
After knock-down of RHBDL2 (rhomboid like 2), the screen gave mean z-score -0.29; z-score, replicate A = -0.59; z-score, replicate B = -0.52; z-score, replicate C = 0.25.
Knock-down of DNTTIP2 (deoxynucleotidyltransferase terminal interacting protein 2) gave: mean z-score -1.09; z-score, replicate A = -0.87; z-score, replicate B = -1.42; z-score, replicate C = -0.98.
For TUT7 (terminal uridylyl transferase 7) the deposit lists mean z-score -0.31; z-score, replicate A = -0.02; z-score, replicate B = -0.45; z-score, replicate C = -0.45.
TAF9B (TATA-box binding protein associated factor 9b) scored mean z-score 1.61; z-score, replicate A = 1.4; z-score, replicate B = 1.8; z-score, replicate C = 1.63.
With knock-down of NRBP1 (nuclear receptor binding protein 1), the screen gave mean z-score 0.68; z-score, replicate A = 0.29; z-score, replicate B = 0.67; z-score, replicate C = 1.07.
For LINC00671 (long independently transcribed non-coding RNA 671), the values are mean z-score 0.05; z-score, replicate A = -0.08; z-score, replicate B = 0.4; z-score, replicate C = -0.16.
Silencing of LRRC73 (leucine rich repeat containing 73) came out at: mean z-score 0.29; z-score, replicate A = 0.06; z-score, replicate B = 0.34; z-score, replicate C = 0.47.
Silencing of CCDC82 (coiled-coil domain containing 82) resulted in: mean z-score -0.24; z-score, replicate A = 0.08; z-score, replicate B = -0.27; z-score, replicate C = -0.53.
LOC346521 (retired record) scored mean z-score -0.32; z-score, replicate A = 0.04; z-score, replicate B = -0.71; z-score, replicate C = -0.28.

Individual results from above.
Entry of CACNA2D3 under “z-score, replicate A”: 0.06
KCTD10 (potassium channel tetramerization domain containing 10), z-score, replicate A → 0.56
